Laboratory results: PubChem BioAssay AID504761 (Drosophila RNAi Screening Center, 2011)
In all, the deposit lists about 22,000 reagents; shown is a random part of those with a known target gene and a result. Over the whole deposit, 116 (0.52%) are marked active. 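Calls depend on retest data that are not deposited; infection was ranked per plate without normalising between plates; the unit of the infection score is not given.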 Further read-outs or replicates are left out here. The record does not give: the amount of reagent, the time to read-out.

Purpose: 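Fly genes whose silencing reduces dengue virus type 2 infection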 (primary screen)
Cell system: D.Mel-2 cells from Drosophila
Knock-down reagent: long dsRNA against Drosophila genes
Conditions: infection with dengue virus type 2; dose and infection time not stated
Read-out: 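Per well on two replicate plates, imaging gave the percent of cells positive for viral envelope protein, ranked by infection, and a nuclear count of cells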
Direction: infection score: higher = more virus-infected cells
Call rule: 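Very low infection ranking in both replicate wells (chance probability at most 0.065), then a retest showing infection dropped 1.5-fold or more at p below 0.05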
Calls: active = confirmed: knock-down lowers infection; inactive = not picked or not confirmed

target gene | amplicon | infection score, replicate 1 | outcome
Cyp313a1 (Cytochrome P450 313a1) | DRSC16624 | 1.89 | inactive
Cyp313a1 (Cytochrome P450 313a1) | DRSC28812 | 21.2 | inactive
CG31675 | DRSC01825 | 2.08 | inactive
CG31675 | DRSC26340 | 10.7 | inactive
CG13323 | DRSC06360 | 8.61 | inactive
Act79B (Actin 79B) | DRSC11604 | 4.15 | inactive
Act79B (Actin 79B) | DRSC25023 | 5.62 | inactive
PsGEF (Protostome-specific GEF) | DRSC18596 | 1.87 | inactive
PsGEF (Protostome-specific GEF) | DRSC27549 | 1.25 | inactive
Tmf (TATA element modulatory factor) | DRSC18368 | 3.67 | inactive
Tmf (TATA element modulatory factor) | DRSC30004 | 17.9 | inactive
Dark (Death-associated APAF1-related killer) | DRSC05922 | 7.05 | inactive
Dark (Death-associated APAF1-related killer) | DRSC27800 | 4.27 | inactive
ATPsynepsilonL (ATP synthase, epsilon subunit-like) | DRSC14548 | 7.07 | inactive
CG7140 | DRSC11799 | 4.48 | inactive

Next part, starting with the last 5 of the part before.
target gene | amplicon | infection score, replicate 1 | outcome
Tmf (TATA element modulatory factor) | DRSC30004 | 17.9 | inactive
Dark (Death-associated APAF1-related killer) | DRSC05922 | 7.05 | inactive
Dark (Death-associated APAF1-related killer) | DRSC27800 | 4.27 | inactive
ATPsynepsilonL (ATP synthase, epsilon subunit-like) | DRSC14548 | 7.07 | inactive
CG7140 | DRSC11799 | 4.48 | inactive
Scsalpha2 (Succinyl-coenzyme A synthetase alpha subunit 2) | DRSC16003 | 1.49 | inactive
Afti (Aftiphilin) | DRSC16440 | 8.34 | inactive
Afti (Aftiphilin) | DRSC29272 | 21.7 | inactive
CG14759 | DRSC06494 | 4.97 | inactive
Nepl13 (Neprilysin-like 13) | DRSC15632 | 7.73 | inactive
CG6695 | DRSC16098 | 4.58 | inactive
CG6695 | DRSC24623 | 13.9 | inactive
HipHop (HP1-HOAP-interacting protein) | DRSC10734 | 1.08 | inactive
esc (extra sexcombs) | DRSC03529 | 32.8 | inactive
esc (extra sexcombs) | DRSC28970 | 12 | inactive
CG6928 | DRSC10749 | 13.5 | inactive
CG1161 | DRSC24956 | 1.64 | inactive
CG30270 | DRSC22890 | 1.4 | inactive
Cyp6a14 (retired record) | DRSC07376 | 20.6 | inactive
Cyp6a14 (retired record) | DRSC24704 | 2.3 | inactive
CG17107 | DRSC02575 | 3.51 | inactive
CG17107 | DRSC22627 | 11.9 | inactive
CG17107 | DRSC25263 | 0.98 | inactive
CG32344 | DRSC08578 | 2.82 | inactive
Nadk1b (NAD kinase 1b) | DRSC06964 | 8.47 | inactive
Nadk1b (NAD kinase 1b) | DRSC06965 | 23.3 | inactive
Nadk1b (NAD kinase 1b) | DRSC25741 | 6.86 | inactive
Sry-beta (Serendipity beta) | DRSC16868 | 3.36 | inactive
Sry-beta (Serendipity beta) | DRSC24321 | 6.26 | inactive
